{"source": "PubChem BioAssay AID1224833 (University of Georgia, 2016)", "screen": "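Host factors restraining rotavirus as candidate antiviral genes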 (primary screen)", "system": "monkey MA104 kidney cells", "reagent": "siRNA pool against human genes, 50 nM", "timing": "48 h knock-down before infection; read 24 h after infection", "treatment": "infection with rotavirus strain RV3 two days after transfection; infectious dose for this stage not given", "detection": "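z-score of rotavirus antigen signal per well, from a fluorescent immunoassay, relative to non-targeting control wells on the same plate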", "direction": "z-score vs non-targeting control: higher = more rotavirus replication than with non-targeting control", "rule for the call": "In these data the active calls have z-score vs non-targeting control at about -1 or lower, or at about 1 or higher", "calls": "active = z-score beyond 1 either way; inactive = z-score within 1 of zero", "note": "The whole screen tested about 12,000 reagents; below is an unselected part. In the full data, about 5,600 (46%) got an active call. 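Active calls cover z-scores past 1 in both directions, so they include lowered as well as raised rotavirus replication.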 Entries without a mark were called inactive."}
{"target": "CWC25", "z-score vs non-targeting control": "-1.11 (active)"}
{"target": "NPTN", "z-score vs non-targeting control": -0.505}
{"target": "WASHC1", "z-score vs non-targeting control": "1.5 (active)"}
{"target": "TECTB", "z-score vs non-targeting control": 0.595}
{"target": "WFDC10B", "z-score vs non-targeting control": 0.159}
{"target": "CLYBL", "z-score vs non-targeting control": "1.72 (active)"}
{"target": "CRB2", "z-score vs non-targeting control": 0.802}
{"target": "ST7L", "z-score vs non-targeting control": "-1.14 (active)"}
{"target": "IFNW1", "z-score vs non-targeting control": -0.865}
{"target": "RBM3", "z-score vs non-targeting control": "-1.47 (active)"}
{"target": "HOXD4", "z-score vs non-targeting control": -0.739}
{"target": "NOLC1", "z-score vs non-targeting control": -0.14}
{"target": "MLH3", "z-score vs non-targeting control": "-1.37 (active)"}
{"target": "MRPS14", "z-score vs non-targeting control": -0.368}
{"target": "VPS33B", "z-score vs non-targeting control": "-1.6 (active)"}
{"target": "ELL", "z-score vs non-targeting control": -0.349}
{"target": "TLR6", "z-score vs non-targeting control": 0.101}
{"target": "PRELID2", "z-score vs non-targeting control": "2.05 (active)"}
{"target": "UBL5", "z-score vs non-targeting control": "-1.08 (active)"}
{"target": "OLIG3", "z-score vs non-targeting control": "-1.29 (active)"}
{"target": "PEX26", "z-score vs non-targeting control": -0.414}
{"target": "ALS2", "z-score vs non-targeting control": "-1.15 (active)"}
{"target": "BCL10", "z-score vs non-targeting control": "2.07 (active)"}
{"target": "IGF1", "z-score vs non-targeting control": "-1.58 (active)"}
{"target": "JPT1", "z-score vs non-targeting control": -0.687}
{"target": "EPHX3", "z-score vs non-targeting control": -0.8}
{"target": "FOXK2", "z-score vs non-targeting control": 0.648}
{"target": "U2SURP", "z-score vs non-targeting control": "1.34 (active)"}
{"target": "LSM4", "z-score vs non-targeting control": 0.975}
{"target": "ORC5", "z-score vs non-targeting control": 0.413}
{"target": "POPDC3", "z-score vs non-targeting control": -0.627}
{"target": "FUT2", "z-score vs non-targeting control": "-1.03 (active)"}
